{"source": "paper PMC5033645", "about": "(Nature structural & molecular biology, 2016)", "binders": {"B1": {"name": "BoNT/A1 receptor-binding domain (HCA), wild type (domain or fragment)", "chain": "not shown"}}, "target": "T1, SUMO-gSV2C: glycosylated human SV2C-L4 (V473-T567) with SUMO, secreted from HEK293 cells (human, UniProt Q496J9 473-567)", "T1 sequence": "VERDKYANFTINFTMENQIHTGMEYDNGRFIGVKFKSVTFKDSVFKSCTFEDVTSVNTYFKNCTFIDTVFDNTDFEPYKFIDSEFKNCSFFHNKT", "assay": "SPR", "data": [{"binder": "B1", "values": [{"measurement": "KD of the high affinity component (heterogeneous fit)", "value": "~15", "unit": "nM"}, {"measurement": "KD of the low affinity component (heterogeneous fit)", "value": "~220", "unit": "nM"}]}]}
